# Data as given in PubChem BioAssay AID624099 (ICCB-Longwood, 2012)
# Screen: 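Knock-downs relieving repression by E2 of an HPV18 LCR luciferase reporter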 (primary screen)
# Cells: human C33A cervical carcinoma cells (HPV-negative) stably expressing BPV1 E2 and an HPV18 LCR luciferase reporter
# Knock-down reagent: siRNA pool against human genes, 40 nM
# Time to read-out: 72 h
# Measured: 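HPV18 LCR reporter light per well, converted to plate-wise z-scores that exclude control wells, and averaged over triplicate plates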
# Direction: mean z-score and z-score: higher = stronger reporter signal, weaker E2 silencing
# Rule for the call: 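Hit if mean z-score reaches 2 and two or more of three replicate z-scores also reach 2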
# Shown is a random part of about 21,000 deposited reagents. Over the whole deposit, 497 (2.4%) are marked active. 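Higher z means weaker E2 silencing; only reporter increases were scored, and knock-downs that hurt cell survival may mask genuine repressor factors.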 Unmarked entries are inactive. The numbers tell different reagents against one gene apart. Reagent sequences are not shown.
gene knocked down,reagent no.,mean z-score,"z-score, replicate A","z-score, replicate B","z-score, replicate C"
BCL11B,1,1.55,1.54,1.62,1.48
TAS2R14,1,1.82,1.77,1.7,2
GCKR,1,0.61,0.95,0.49,0.38
EIF3L,1,1.87,2.42,1.44,1.74
GRIN2C,1,2.7 (active),2.75,2.6,2.76
NPR3,1,-0.2,-0.06,-0.21,-0.34
NPR3,2,0.2,0.23,-0.01,0.37
GDPGP1,1,0.83,0.86,0.52,1.11
WASH3P,1,0.64,0.66,0.76,0.51
JPH1,1,-0.15,-0.58,0.46,-0.33
HBA2,1,-2.23,-2.51,-1.8,-2.37
ZNF407-AS1,1,0.65,0.79,0.47,0.69
TOP2A,1,0.49,0.43,0.54,0.51
CUEDC1,1,-0.26,-0.31,-0.23,-0.24
MC3R,1,-0.89,-0.79,-0.73,-1.14
DYM,1,-1.16,-1.18,-1.27,-1.04
GTF2H1,1,-0.26,-0.02,-0.43,-0.35
HELZ,1,0.7,0.71,0.63,0.77
AKNA,1,-0.21,-0.18,-0.12,-0.32

Sorted by “mean z-score” (lowest first): 2 of the entries above
gene knocked down,reagent no.,mean z-score,"z-score, replicate A","z-score, replicate B","z-score, replicate C"
EIF3L,1,1.87,2.42,1.44,1.74
GRIN2C,1,2.7 (active),2.75,2.6,2.76

The results go on:
gene knocked down,reagent no.,mean z-score,"z-score, replicate A","z-score, replicate B","z-score, replicate C"
BICRAL,1,-0.8,-0.99,-0.98,-0.43
OSER1,1,-0.11,-0.13,-0.43,0.24
SPTLC2,1,-0.01,0.09,-0.22,0.11
LMBRD2,1,0.75,0.62,0.73,0.91
C6orf136,1,0.33,0.42,0.32,0.26
DUT,1,0.13,0.55,0.21,-0.36
IDNK,1,-0.65,-0.56,-0.58,-0.8
GP5,1,-0.59,-0.32,-0.74,-0.7
GARIN4,1,-0.35,-0.48,-0.12,-0.45
IGBP1,1,-0.02,0.1,-0.14,-0.03
ATN1,1,0.63,0.75,0.58,0.58
GPR156,1,-1.44,-1.18,-1.6,-1.54
RYR1,1,1.08,0.83,1.1,1.31
ERAS,1,1.1,0.84,1.3,1.15
PRAMEF5,1,0.57,0.63,0.7,0.38
PTPN5,1,0.28,0.32,0.15,0.38
KLHL9,1,-1.3,-1.37,-1.38,-1.14
BAHCC1,1,-1.16,-1.37,-0.9,-1.2
PNMA1,1,-0.53,-0.93,-0.23,-0.44
LINC01777,1,0.17,0.07,0.52,-0.07
